PubChem BioAssay AID504761, Drosophila RNAi Screening Center, 2011
The screen tested about 22,000 reagents; this is an unselected part of those that have a named target and a result. Of all reagents, 116 (0.52%) were called active. 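Calls depend on retest data that are not deposited; infection was ranked per plate without normalising between plates; the unit of the infection score is not given.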 Raw values are not corrected between plates. A plus sign joins genes that one reagent is predicted to hit. Not given: the amount of reagent, the time to read-out.

- Aim: 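Fly genes whose silencing reduces dengue virus type 2 infection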 (primary screen)
- Cell system: D.Mel-2 cells from Drosophila
- Reagent: long dsRNA against Drosophila genes
- Challenge: infection with dengue virus type 2; dose and infection time not stated
- Detection: 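Cells stained for dengue envelope protein and imaged; percent of infected cells per well on duplicate plates, ranked by infection, with stained nuclei counted for cell number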
- Scale: infection score: higher = more virus-infected cells; cell count: higher = more cells in the well
- Rule for the call: 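Low infection ranks in the two replicates (chance level up to 0.065) followed by a retest with a 1.5-fold or larger significant decrease, p below 0.05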
- Meaning of the calls: active = confirmed: knock-down lowers infection; inactive = not picked or not confirmed

| gene knocked down | PubChem SID | infection score, replicate 1 | infection score, replicate 2 | cell count, replicate 1 | cell count, replicate 2 | outcome |
| --- | --- | --- | --- | --- | --- | --- |
| Cfp1 | SID104197920 | 28.2 | 21.5 | 5401 | 3270 | inactive |
| SCCRO4 | SID104190463 | 3.1 | – | 936 | 394 | inactive |
| CG8187 | SID104186891 | 23.3 | 14.3 | 6153 | 6186 | inactive |
| ex | SID104180609 | 4.29 | 3.21 | 6253 | 6383 | inactive |
| ex | SID104202964 | 1.25 | 0.68 | 5738 | 6036 | inactive |
| CG17780 + CG17781 | SID104195058 | 5 | 17.9 | 6795 | 4337 | inactive |
| CG17780 + CG17781 | SID104204126 | 1.33 | 0.99 | 6559 | 6450 | inactive |
| CG17780 + CG17781 | SID104205360 | 18.1 | 26.8 | 6748 | 6202 | inactive |
| Ir94h | SID104195024 | 7.05 | 8.09 | 6315 | 5723 | inactive |
| CG9849 | SID104184365 | 17.9 | 22.9 | 5761 | 5765 | inactive |
| CG31678 | SID104182410 | 12.4 | 15.7 | 6663 | 6635 | inactive |
| CG31678 | SID104182411 | 3.23 | 20.2 | 6542 | 4073 | inactive |
| Scox | SID104182909 | 6.16 | 9.07 | 4484 | 4554 | inactive |
| Scox | SID104204910 | 4.89 | 13.5 | 1453 | 5882 | inactive |
| Dci | SID104188152 | 1.78 | 1.76 | 6193 | 6131 | inactive |
| Dci | SID104207473 | 14.5 | 20.6 | 5772 | 5463 | inactive |
| RunxB | SID104200187 | 0.93 | 1.82 | 6131 | 6477 | inactive |
| RunxB | SID104200317 | 4.66 | 0.26 | 5624 | 6221 | inactive |
| RunxB | SID104200318 | 15.3 | 9.18 | 3241 | 3169 | inactive |
| RunxB | SID104202507 | 1.19 | 3.7 | 6913 | 6948 | inactive |
| RunxB | SID104207343 | 24.2 | 14.8 | 5352 | 4340 | inactive |
| CG5056 | SID104182600 | 17.9 | 12.5 | 6013 | 5642 | inactive |
| Btk | SID104181800 | 22.4 | – | 5609 | 386 | inactive |
| Btk | SID104182458 | 1.67 | 1.28 | 6112 | 6776 | inactive |
| Btk | SID104201898 | 2.52 | 11 | 6075 | 6304 | inactive |
| Svil | SID104188088 | 7.98 | 9.12 | 6314 | 5943 | inactive |
| Svil | SID104188124 | 2.32 | 1.59 | 6452 | 6718 | inactive |
| Svil | SID104188286 | 1.46 | 5.53 | 6442 | 6493 | inactive |
| Svil | SID104203193 | 10.3 | 8.93 | 7019 | 6450 | inactive |
| Svil | SID104204348 | 2.88 | 8.4 | 6520 | 6177 | inactive |
| PPO3 | SID104184117 | 16 | 28.8 | 6899 | 5729 | inactive |
| PPO3 | SID104203069 | 1.15 | 1 | 6459 | 6321 | inactive |
| Impbeta11 | SID104187317 | 4.22 | 9.13 | 6724 | 7195 | inactive |
| TpnC47D | SID104187356 | 18.5 | 19.7 | 6856 | 4399 | inactive |
| Pak | SID104192394 | 13.5 | 4.65 | 4013 | 1227 | inactive |
| Pak | SID104202659 | 1.47 | 1.95 | 6781 | 6860 | inactive |
| Ns3 | SID104198399 | 1.83 | 1.99 | 6610 | 6750 | inactive |
| Ns3 | SID104204391 | 3.73 | 1.37 | 6114 | 5896 | inactive |
| Rad51D | SID104186632 | 12.8 | 5.87 | 4784 | 6574 | inactive |
| lncRNA:CR33987 | SID104204623 | 16.3 | 9.2 | 6212 | 6177 | inactive |
| und | SID104183421 | 14.5 | 5 | 5823 | 5276 | inactive |
| mim | SID104202402 | 1.21 | 6.45 | 5962 | 5951 | inactive |
| mim | SID104206228 | 8.34 | 3.81 | 5829 | 6688 | inactive |
| CG12104 | SID104188046 | 6.24 | 10.5 | 6302 | 4244 | inactive |
| CG12104 | SID104205317 | 3.86 | 8.93 | 6262 | 6560 | inactive |
| CG42686 (retired record) | SID104195040 | 6.72 | 4.9 | 5491 | 5670 | inactive |
| CG42686 (retired record) | SID104202352 | 4.51 | 9.23 | 6070 | 6065 | inactive |
| CG42686 (retired record) | SID104204342 | 5.62 | 2.82 | 6321 | 6888 | inactive |
| CG42686 (retired record) | SID104207889 | 2.87 | 4.07 | 906 | 5597 | inactive |
| asRNA:Eig63F-2 | SID104206421 | 5.66 | 5.44 | 6577 | 6049 | inactive |
| CG43316 | SID104186088 | 15.4 | 28.4 | 6254 | 5275 | inactive |
| CG43316 | SID104186089 | 11 | 17.5 | 6246 | 5538 | inactive |
| CG43316 | SID104207004 | 7.32 | 12.3 | 2881 | 4839 | inactive |
| Plod | SID104190393 | 5.24 | 2.3 | 6837 | 7100 | inactive |
| Plod | SID104190394 | 1.9 | 2.11 | 5780 | 6151 | inactive |
| TwdlK | SID104203515 | 3.63 | 14.8 | 5847 | 4403 | inactive |
| Desi | SID104194701 | 1.44 | 6.78 | 6248 | 6355 | inactive |
| pea | SID104186912 | 38.4 | 31.3 | 3429 | 3886 | inactive |
| pea | SID104208252 | 22.2 | 13.5 | 2977 | 2545 | inactive |
